A mixed list of measured activities; the numbers were collected in NIAID ChemDB.

Shared fields: growth or infection tests; agent: Human cytomegalovirus

Conditions beyond the fields shown may differ between rows.

SMILES,read by,cell line,measure,strain or isolate,value
Nc1ncc2ncn(/C=C3\CC3CO)c2n1,ELISA,-,EC50,-,>100 µM
OC[C@H]1O[C@@H](n2c(Cl)nc3cc(Cl)c(Cl)cc32)[C@H](O)[C@@H]1O,plaque count,-,EC50,-,0.7 µM
Nc1ccn(C[C@@H](CO)OCP(=O)(O)O)c(=O)n1,plaque count,HFF,EC50,Coffman,1.6 µM
CN(Cc1ccc(C(F)(F)F)cc1)C(=O)N1C(=O)C[C@@H]1CSc1nnnn1C,plaque count,-,EC50,-,0.8 µM
C=Cc1cn([C@H]2C[C@H](O)[C@@H](CO)O2)c(=S)[nH]c1=O,plaque count,MRC-5,EC50,93-1R,>277.6 µM
Nc1nc(N)c2nnn(C[C@@H](CO)OCP(=O)(O)O)c2n1,cytopathic effect,HEL,EC50,AD169,>100 µg/mL
C[C@H]1O[C@@H](n2c(Cl)nc3cc(Cl)c(Cl)cc32)[C@H](O)C1O,plaque count,HFF,EC50,Isolate B11 mutation D344E,2.9 µM
Nc1nc2c(ncn2CC[C@@H](O)CO)c(=O)[nH]1,antigen,HEL,EC50,9 isolates,220 µM
Nc1nc2c(ncn2COC(CO)CO)c(=O)[nH]1,hybridisation,MRC-5,EC50,8805REC1 (MET460VAL),1.7 µM
Nc1nc2c(ncn2COC(CO)CO)c(=O)[nH]1,plaque count,HS68,EC50,AD169,0.3 µg/mL
CCCCCCCCCCCCCCCCCCOC[C@H](COP(=O)(O)CO[C@H](CO)Cn1ccc(N)nc1=O)OCc1ccccc1,plaque count,HFF,EC50,AD169,0.003 µM
CN(Cc1ccc([N+](=O)[O-])cc1)C(=O)N1C(=O)C[C@@H]1CSc1ncccn1,plaque count,-,EC50,-,1.2 µM
O=Cc1c(Cl)n([C@@H]2O[C@H](CO)[C@@H](O)[C@H]2O)c2cc(Cl)c(Cl)cc12,plaque count,HFF,EC50,-,0.23 µM
CCCCCCCCCCCCCCCCCCOCCOP1(=O)CO[C@@H](Cn2ccc(N)nc2=O)CO1,plaque count,MRC-5,EC50,759D100 drug-resistant mutant,0.015 µM
CC(O)c1cn([C@@H]2O[C@H](CO)[C@@H](O)[C@@H]2O)c(=S)nc1N,plaque count,MRC-5,EC50,AD169,>244.8 µM
Nc1nc2c(ncn2COC(CO)CO)c(=O)[nH]1,plaque count,HFF,EC50,Isolate B11 mutation D344E,3.1 µM
N#Cc1c(Cl)n([C@@H]2O[C@H](CO)[C@@H](O)[C@H]2O)c2cc(Cl)c(Cl)cc12,plaque count,HFF,EC50,-,0.55 µM
Nc1nc(=S)n([C@@H]2O[C@H](CO)[C@@H](O)[C@@H]2O)cc1CO,plaque count,MRC-5,EC50,93-1R,98.8 µM
Nc1nc2c(ncn2[C@@H]2C[C@H](CO)[C@H]2CO)c(=O)[nH]1,plaque count,WI-38,EC50,AD169,2–4 µM
Nc1nc2c(ncn2CCCCO)c(=O)[nH]1,-,HEL,EC50,AD169,250 µM
Cn1c(N)nc2nc[nH]c2c1=S,cytopathic effect,WI-38,EC50,-,<32 µg/mL
O=c1[nH]c(=S)n([C@@H]2O[C@H](CO)[C@@H](O)[C@@H]2O)cc1CCO,plaque count,MRC-5,EC50,93-1R,>213 µM
CCCCCCCC/C=C\CCCCCCCCOCCOP(=O)(O)CO[C@H](CO)Cn1ccc(N)nc1=O,plaque count,HFF,EC50,DAVIS,0.005 µM
CC(=O)O[C@@H](CC/C(C)=C/[C@@H]1OCC(C)=C1CC[C@H](C)O)[C@@]1(C)CCC(=O)O1,cytopathic effect,HEL,EC50,-,5 µg/mL
CN(Cc1ccc([N+](=O)[O-])cc1)C(=O)N1C(=O)C[C@@H]1CSc1nnnn1C,plaque count,-,EC50,-,0.5 µM
CN(C)c1cccc2c(S(=O)(=O)Nc3ccc(NC(=O)C(C)(C)CO)cc3)cccc12,plaque count,-,EC50,V1 (ganciclovir- foscarnet-resistant),0.15 µM
Nc1ncnc2c1ncn2C=C1CC1CO,plaque count,HFF,EC50,AD169,2.1 µM
Nc1ncc2ncn(/C=C3/CC3CO)c2n1,ELISA,-,EC50,-,>100 µM
O=C(Nc1ccc(NC(=S)Nc2cc(C(F)(F)F)cc(C(F)(F)F)c2)cc1)c1csnn1,-,-,EC50,-,0.037 µM
CCCSc1ncnc2nc[nH]c12,cytopathic effect,WI-38,EC50,-,<32 µg/mL
OC[C@H]1O[C@@H](n2c(Br)nc3cc(Cl)c(Cl)cc32)[C@H](O)[C@@H]1O,virus yield,-,EC50,-,<1.4 µM
Nc1nc2c(ncn2C[C@@H]2CC[C@@H](P(=O)(O)O)O2)c(=O)[nH]1,plaque count,HFF,EC50,1117R3-1-2 cidofovir-resistant,0.06 µg/mL
COc1cc(OC)c(NC(=S)Nc2ccc(NC(=O)c3ccco3)cc2)cc1Cl,-,HFF,EC50,AD169,0.016 µM
CCCCCCCCCCCCCCCCCCOCCOP(=O)(O)CO[C@H](CO)Cn1ccc(N)nc1=O,plaque count,MRC-5,EC50,AD169,0.0009 µM
OC[C@H]1O[C@@H](n2cnc3c(=S)nc[nH]c32)[C@H](O)[C@@H]1O,cytopathic effect,WI-38,EC50,-,<320 µg/mL
Nc1nc2c(ncn2C=C2CC2CO)c(=O)[nH]1,plaque count,HFF,EC50,AD169,0.3 µM
S=c1nc[nH]c2nc[nH]c12,cytopathic effect,WI-38,EC50,-,320 µg/mL
Nc1ncnc2c1ncn2C=C1CC1CO,plaque count,-,EC90,VR4990 (ganciclovir-resistant),7.2 µM
C[C@H](Cn1nnc2c(=O)[nH]c(N)nc21)OCP(=O)(O)O,cytopathic effect,HEL,EC50,DAVIS,>50 µg/mL
C=Cc1cn([C@@H]2O[C@H](CO)[C@@H](O)[C@@H]2O)c(=S)[nH]c1=O,plaque count,MRC-5,EC50,AD169,>213 µM
O=c1[nH]c(=O)n([C@H]2C[C@H](O)[C@@H](CO)O2)cc1C(F)(F)F,virus yield,HFF,EC50,AD169,0.012 µM
CCCCCCCC/C=C\CCCCCCCOCCCOP(=O)(O)CO[C@H](CO)Cn1ccc(N)nc1=O,plaque count,HFF,EC50,TOWNE,0.002 µM
COc1cc(OC)c(NC(=S)Nc2ccc(NC(C)=O)cc2)cc1Cl,virus yield,-,EC90,16 isolates,0.384 µM
COc1c(C=O)c2cc(Cl)c(Cl)cc2n1[C@@H]1O[C@H](CO)[C@@H](O)[C@H]1O,plaque count,HFF,EC50,-,4 µM
O=C(Nc1ccc(NC(=S)Nc2ccc(Cl)c(Cl)c2)cc1)c1csnn1,-,-,EC50,-,0.019 µM
CCCCNc1c(C=O)c2cc(Cl)c(Cl)cc2n1[C@@H]1O[C@H](CO)[C@@H](O)[C@H]1O,plaque count,HFF,EC50,-,7 µM

The last 3 rows once more:

SMILES,read by,cell line,measure,strain or isolate,value
COc1c(C=O)c2cc(Cl)c(Cl)cc2n1[C@@H]1O[C@H](CO)[C@@H](O)[C@H]1O,plaque count,HFF,EC50,-,4 µM
O=C(Nc1ccc(NC(=S)Nc2ccc(Cl)c(Cl)c2)cc1)c1csnn1,-,-,EC50,-,0.019 µM
CCCCNc1c(C=O)c2cc(Cl)c(Cl)cc2n1[C@@H]1O[C@H](CO)[C@@H](O)[C@H]1O,plaque count,HFF,EC50,-,7 µM

a–b is a range or a potency band. Blank or dashed fields: not listed here. ECn is the concentration giving n% inhibition of infection, replication or growth.